The values that follow come from patent US20170253861.

The test system of this data set is influenza A/Indonesia/5/05 (H5N1) matrix protein M1, influenza A/Indonesia/5/05 (H5N1) virus, Q2LG20 1-252. Description: SDS-PAGE of purified H3N2 rVLPs (self-association).

Turning to “influenza A/Indonesia/5/05 (H5N1) matrix protein M1”, the result is “binds”.
